Pooled drug test results. Numbers come from NIAID ChemDB, via PubChem.

Common to all: tests on isolated targets; organism: HIV-1; protein: Reverse transcriptase; read-out: fold resistance

Fold resistance has wild type as its base. Two numbers with a dash give a range or band. Neighbouring rows are from separate reports. Blank or dashed fields: not listed here.

| smiles | strain or isolate | method | mutations | result |
|---|---|---|---|---|
| O=P(O)(O)OP(=O)(O)O |  | nucleotide incorporation / radiometric | RT-D113E | 2.3 |
| Cc1cc(C)cc(S(=O)(=O)c2c(C(=O)NCCO)[nH]c3ccc(Cl)cc23)c1 |  | nucleotide incorporation / radiometric | RT-K103N | 380 |
| CCN1c2ncc(CCOc3cccc4c3CNC4=O)cc2-c2ncc(C)n2-c2cccnc21 |  | nucleotide incorporation / radiometric | RT-K103N Y181C | >2 |
| CCc1ccc(-n2c(SCC(=O)Nc3ccc(S(N)(=O)=O)cc3C)nnc2C(F)F)c2ccccc12 |  | nucleotide incorporation / radiometric | RT-Y181C | >1 |
| Nc1nc2c(ncn2[C@H]2CC[C@@H](COP(=O)(O)OP(=O)(O)OP(=O)(O)O)O2)c(=O)[nH]1 |  | radiometric | RT-W229Y | 1.35 |
| CCc1ccc(-n2c(Br)nnc2SCC(=O)Nc2ccc(C(=O)NCC3CCCCC3)cc2Cl)c2ccccc12 |  | nucleotide incorporation / radiometric | RT-Y188L | >2 |
| CCN1c2ncc(CCOc3cccc4c3COC(=O)N4)cc2-c2ncc(C)n2-c2cccnc21 |  | nucleotide incorporation / radiometric | RT-K103N Y181C | >2 |
| CC(C)c1ccc(-n2c(SCC(=O)Nc3ccc(S(N)(=O)=O)cc3Cl)nnc2C(F)F)c2ccccc12 |  | nucleotide incorporation / radiometric | RT-Y188L | >2 |
| CC(C)=CCOc1cc(NC(=S)c2ccoc2C)ccc1Cl |  | nucleotide incorporation | RT-W229F | 1.59 |
| CCN1c2ncc(CCOc3ccc(S(=O)(=O)NC(C)=O)c4ccccc34)cc2C(=O)N(C)c2cccnc21 |  | nucleotide incorporation / radiometric | RT-K103N Y181C | 1–10 |
| CCN1c2ncc(CCOc3ccc(C(=O)O)c4ccccc34)cc2-c2ncc(C)n2-c2cccnc21 |  | nucleotide incorporation / radiometric | RT-K103N Y181C | >2 |
| COc1ccc2c(c1)N(C(=O)OC(C)C)[C@@H](CSC)C(=S)N2 |  | radiometric | RT-W229F | 1.15 |
| CC(Sc1nnc(Br)n1-c1ccc(C2CC2)c2ccccc12)C(=O)Nc1ccc(S(N)(=O)=O)cc1Cl |  | nucleotide incorporation / radiometric | RT-Y181C | >1 |
| CCC(=O)c1ccc(F)c([C@H]2C[C@H]2NC(=O)Nc2ccc(Br)cn2)c1O | IIIB |  | RT-K103N | 2.92 |
| Cc1ccc2c(C)cc(C)c(-n3c(SCC(=O)Nc4ccc(S(N)(=O)=O)cc4Cl)nnc3C(F)F)c2n1 |  | nucleotide incorporation / radiometric | RT-Y188L | >2 |
| CC[C@H]1C(=O)Nc2ccc(F)cc2N1C(=O)OC(C)C |  | radiometric | RT-W229F | 2 |
| CCN1c2ncc(CCOc3ccc(/C=C(\C)C(=O)O)c4ccccc34)cc2C(=O)Nc2c(C)ccnc21 |  | nucleotide incorporation / radiometric | RT-V106A | 1–10 |
| CC(C)C[C@H](NC(=O)c1ccc(NC(=O)CSc2nnc(Br)n2-c2ccc(C3CC3)c3ccccc23)c(Cl)c1)C(=O)O |  | nucleotide incorporation / radiometric | RT-Y188L | >1 |
| C=CCO/N=C/c1cc(NC(=S)c2ccoc2C)ccc1Cl |  | nucleotide incorporation / radiometric | RT-Y181C | >8.33 |
| Cc1cc(S(N)(=O)=O)ccc1NC(=O)CSc1nnc(Br)n1-c1ccc(C2CCC2)c2ccccc12 |  | nucleotide incorporation / radiometric | RT-Y188L | >2 |
| CCN1c2ncc(CCOc3cccc4c3CS(=O)(=O)N4CC(=O)OC(C)(C)C)cc2-c2nccn2-c2c(C)ccnc21 |  | nucleotide incorporation / radiometric | RT-K103N Y181C | >1 |
| CCOC(=O)C(=O)CC(=O)/C=C/c1cccn1Cc1ccccc1Cl |  | RNase H / radiometric | Q475A | 12.3 |
| CCN1c2ncc(CCOc3cccc4c3CNC(=O)N4)cc2-c2nc(C)cn2-c2cccnc21 |  | nucleotide incorporation / radiometric | RT-K103N Y181C | >2 |
| CC(C)=CCOc1cc(NC(=S)c2ccoc2C)ccc1Cl |  |  | RT-V106A | 1 |
| CCOCn1c(Cc2ccccc2)c(C(C)C)c(=O)[nH]c1=O |  | radiometric | RT-W229Y | 8.44 |
| Cc1cc(C2CC2)c2ccccc2c1-n1c(Br)nnc1SCC(=O)Nc1ccc(S(=O)(=O)O)cc1Cl |  | nucleotide incorporation / radiometric | RT-Y188L | >1 |
| CCN1c2ncc(CCOc3ccc4cc(CC(=O)NN)ccc4c3)cc2C(=O)N(C)c2cccnc21 |  | nucleotide incorporation / radiometric | RT-Y188L | 1–10 |
| CCc1ccc(-n2c(Br)nnc2SCC(=O)Nc2ccc(C(=O)N3CCC(CN)CC3)cc2Cl)c2ccccc12 |  | nucleotide incorporation / radiometric | RT-Y188L | >2 |
| Cc1occc1C(=S)Nc1ccc(Cl)c(/C=N/OC(C)(C)C)c1 |  | nucleotide incorporation / radiometric | RT-K103N | >3.85 |
| CCc1ccc(-n2c(SCC(=O)Nc3ccc(S(N)(=O)=O)cc3Cl)nnc2C(F)F)c2c1CCCC2 |  | nucleotide incorporation / radiometric | RT-Y188L | >2 |
| CCN1c2ncc(CCOc3ccc(CC(C)C(=O)O)c4ccccc34)cc2C(=O)Nc2c(C)ccnc21 |  | nucleotide incorporation / radiometric | RT-Y188L | >10 |
| CCN1c2ncc(CCOc3cccc4c3CCS(=O)(=O)N4)cc2-c2ncc(C)n2-c2cccnc21 |  | nucleotide incorporation / radiometric | RT-K103N Y181C | >1 |
| Cc1occc1C(=S)Nc1ccc(Cl)c(C(=O)OCC2CC2)c1 |  | nucleotide incorporation / radiometric | RT-L100I | >8.33 |
| CCc1ccc(-n2c(Br)nnc2SCC(=O)Nc2ccc(C(=O)O)cc2C)c2ccccc12 |  | nucleotide incorporation / radiometric | RT-Y181C | >1 |
| Nc1nc2c(ncn2[C@H]2CC[C@@H](COP(=O)(O)OP(=O)(O)OP(=O)(O)O)O2)c(=O)[nH]1 |  | nucleotide incorporation | RT-Y181C | 2.5 |
| CC(C)=CCOc1cc(NC(=S)c2ccsc2C)ccc1Cl |  |  | RT-E138K | 1 |
| CCc1ccc(-n2c(Br)nnc2SCC(=O)Nc2ccc(C(=O)O)cc2Br)c2ccccc12 |  | nucleotide incorporation / radiometric | RT-Y188L | >1 |

Repeating the first 2 entries:

smiles,strain or isolate,method,mutations,result
O=P(O)(O)OP(=O)(O)O,,nucleotide incorporation / radiometric,RT-D113E,2.3
Cc1cc(C)cc(S(=O)(=O)c2c(C(=O)NCCO)[nH]c3ccc(Cl)cc23)c1,,nucleotide incorporation / radiometric,RT-K103N,380